# Measurements from patent US20220356230A1 (published 2022).
# B1: mAb10913 (antibody, V domains shown)
# VH: EVQLVESGGGLVQPGGSLRLSCAASGFTFRNYEMNWVRQAPGKGLEWVSYITSSGSTMYYADSVKGRFTISRDNAKNSLYLQMNSLRAEDTAVYYCARDGFYYYYAMDVWGQGTTVTVSS
# VL: QSVLTQPPSVSAAPGQKVTISCSGSSSNIGNNYVSWYQQLPGTAPKLLIYDNNKRPSGIPDRFSGSKSGTSATLGITGLQTGDEADYYCGTWDSSLSVGRVFGTGTKVTVLG
# Target: MERS-CoV (SARS-CoV-2) Spike Protein S1 (aa 1-725, His Tag) (Sino 40069-V08H) (MERS-CoV, UniProt K9N5Q8 18-725)
binder,measurement,value
B1,Binding signal (MFI),14 MFI
